Measured data: PubChem BioAssay AID624099 (ICCB-Longwood, 2012)
Aim: 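Host factors E2 relies on to silence an HPV18 LCR reporter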 (primary screen). System: human C33A cervical carcinoma cells (HPV-negative) stably expressing BPV1 E2 and an HPV18 LCR luciferase reporter. Reagents: siRNA pool against human genes, 40 nM. Timing: 72 h. Read-out: 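HPV18 LCR reporter light per well, converted to plate-wise z-scores that exclude control wells, and averaged over triplicate plates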. Reading the numbers: mean z-score and z-score: higher = stronger reporter signal, weaker E2 silencing. Active means: 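Mean z ≥ 2 together with z ≥ 2 in two or more of the three replicates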.
The whole screen tested about 21,000 reagents; below is a random part of them. 497 of them (2.4%) count as active. 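Higher z means weaker E2 silencing; only reporter increases were scored, and knock-downs that hurt cell survival may mask genuine repressor factors.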 Entries without a mark were called inactive.

After knock-down of L3MBTL2 (GeneID 83746), the screen gave mean z-score 1.61; z-score, replicate A = 1.44; z-score, replicate B = 2.01; z-score, replicate C = 1.36.
For NPRL3 (GeneID 8131), the entry reads mean z-score 0.08; z-score, replicate A = 0.04; z-score, replicate B = 0.1; z-score, replicate C = 0.08.
Silencing of OR56A5 (GeneID 390084) came out at: mean z-score 0.21; z-score, replicate A = 0.17; z-score, replicate B = 0.18; z-score, replicate C = 0.28.
For MSC (GeneID 9242), the values are mean z-score 0.25; z-score, replicate A = 0.18; z-score, replicate B = 0.24; z-score, replicate C = 0.34.
With knock-down of NAALADL2 (GeneID 254827), the record shows mean z-score -1.15; z-score, replicate A = -1.04; z-score, replicate B = -1.19; z-score, replicate C = -1.23.
After knock-down of CEACAM22P (GeneID 388550), the screen gave mean z-score 0.39; z-score, replicate A = 0.15; z-score, replicate B = 0.35; z-score, replicate C = 0.69.
SIAE (GeneID 54414) scored mean z-score -0.4; z-score, replicate A = -0.29; z-score, replicate B = -0.31; z-score, replicate C = -0.6.
With knock-down of EIF2S1 (GeneID 1965) the results were mean z-score -3.76; z-score, replicate A = -3.84; z-score, replicate B = -3.65; z-score, replicate C = -3.8.
Depletion of GTPBP1 (GeneID 9567) gave: mean z-score 0.27; z-score, replicate A = 0.01; z-score, replicate B = 0.23; z-score, replicate C = 0.57.
After knock-down of RNF103 (GeneID 7844), the screen gave mean z-score 1.05; z-score, replicate A = 1.06; z-score, replicate B = 1.06; z-score, replicate C = 1.02.
Knock-down of C3orf36 (GeneID 80111) came out at: mean z-score -0.86; z-score, replicate A = -1; z-score, replicate B = -0.74; z-score, replicate C = -0.83.
Knock-down of SERBP1P1 (GeneID 389866) came out at: mean z-score -0.51; z-score, replicate A = -0.6; z-score, replicate B = -0.37; z-score, replicate C = -0.57.
Knock-down of PPP1R14A (GeneID 94274) resulted in: mean z-score 0.56; z-score, replicate A = 0.48; z-score, replicate B = 0.7; z-score, replicate C = 0.48.
Knock-down of PRSS42P (GeneID 339906) resulted in: mean z-score 0.34; z-score, replicate A = 0.35; z-score, replicate B = 0.04; z-score, replicate C = 0.62.
FIBP (GeneID 9158) gave mean z-score -0.14; z-score, replicate A = 0.05; z-score, replicate B = -0.41; z-score, replicate C = -0.05.
For AVPI1 (GeneID 60370), the values are mean z-score 0.24; z-score, replicate A = -0.29; z-score, replicate B = 0.18; z-score, replicate C = 0.82.
Silencing of KISS1 (GeneID 3814) came out at: mean z-score -1.11; z-score, replicate A = -0.88; z-score, replicate B = -1.09; z-score, replicate C = -1.37.
Knock-down of ST8SIA6 (GeneID 338596) gave: mean z-score 0.29; z-score, replicate A = 0.1; z-score, replicate B = 0.35; z-score, replicate C = 0.4.
For GTPBP4 (GeneID 23560) the deposit lists mean z-score -0.71; z-score, replicate A = -0.94; z-score, replicate B = -0.44; z-score, replicate C = -0.75.
TRIB2 (GeneID 28951) showed mean z-score -0.51; z-score, replicate A = -0.63; z-score, replicate B = -0.26; z-score, replicate C = -0.64.
With knock-down of IFI35 (GeneID 3430) the results were mean z-score -0.19; z-score, replicate A = 0.01; z-score, replicate B = -0.32; z-score, replicate C = -0.25.
For SLITRK3 (GeneID 22865), the entry reads mean z-score -0.02; z-score, replicate A = 0.01; z-score, replicate B = 0.11; z-score, replicate C = -0.17.
Against NT5C3B (GeneID 115024) the deposit lists mean z-score -0.15; z-score, replicate A = -0.38; z-score, replicate B = 0.02; z-score, replicate C = -0.09.
PNMA5 (GeneID 114824) gave mean z-score -0.55; z-score, replicate A = -0.78; z-score, replicate B = -0.54; z-score, replicate C = -0.34.
With knock-down of PRMT3 (GeneID 10196), the record shows mean z-score -0.4; z-score, replicate A = -0.04; z-score, replicate B = -0.51; z-score, replicate C = -0.65.
Against MANF (GeneID 7873), the entry reads mean z-score -0.73; z-score, replicate A = -0.8; z-score, replicate B = -0.67; z-score, replicate C = -0.71.
HAAO (GeneID 23498) scored mean z-score -1.15; z-score, replicate A = -1.39; z-score, replicate B = -1.15; z-score, replicate C = -0.92.

4 neighbouring entries from above, for reference:
L3MBTL2 (GeneID 83746): mean z-score = 1.61; z-score, replicate A = 1.44; z-score, replicate B = 2.01; z-score, replicate C = 1.36
NPRL3 (GeneID 8131): mean z-score = 0.08; z-score, replicate A = 0.04; z-score, replicate B = 0.1; z-score, replicate C = 0.08
OR56A5 (GeneID 390084): mean z-score = 0.21; z-score, replicate A = 0.17; z-score, replicate B = 0.18; z-score, replicate C = 0.28
MSC (GeneID 9242): mean z-score = 0.25; z-score, replicate A = 0.18; z-score, replicate B = 0.24; z-score, replicate C = 0.34
